The series in a line: peptide synthesis. Particulars: conjugation step; for final HPLC purity: 254 nm.

For A20FMDV2- SG3249, the conjugation yield stood at 54% and the “final HPLC purity” value is 93.1%.

For the substance NT- peptide- SG3249, the conjugation yield turned out to be 43% and the “final HPLC purity” value came out at 92.5%.

(Values after paper PMC7053198 (Theranostics, 2020).)
